Results as given in article PMC11538452 (Nature Communications, 2024).

Legend:
pTag9aa-gp100_(20-39) = biological target: T1, pTag9aa-gp100_(20-39) (synthetic peptide: tetanus toxin pTag + …, chimera)
T1 chain: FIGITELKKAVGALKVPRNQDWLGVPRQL

pTag9aa-E7_(44-62) = biological target: T2, pTag9aa-E7_(44-62) (synthetic peptide: tetanus toxin pTag + …, chimera)
T2 chain: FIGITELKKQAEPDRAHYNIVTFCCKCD

pTag9aa-pp65_(489-510) = biological target: T3, pTag9aa-pp65_(489-510) (synthetic peptide: tetanus toxin pTag + …, chimera)
T3 chain: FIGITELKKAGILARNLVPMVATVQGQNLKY

pTag9aa-OVA_(323-339) = biological target: T4, pTag9aa-OVA_(323-339) (synthetic peptide: tetanus toxin pTag + …, chimera)
T4 chain: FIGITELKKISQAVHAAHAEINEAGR

[1] = biological target: T5, pTag_(9aa-)KRAS_(G12D) peptide (synthetic peptide: tetanus toxin pTag + …, chimera)
T5 chain: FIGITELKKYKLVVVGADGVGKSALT

[2] = biological target: T6, pTag_(9aa-)KRAS_(G12V) peptide (synthetic peptide: tetanus toxin pTag + …, chimera)
T6 chain: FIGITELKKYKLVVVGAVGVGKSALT

Measured: binding result

B1: BiA9*2_HF (antibody, V domains shown)
VH: QVQLVQSGAEVKKPGASVKVSCKASGFNIKDFNIHWVRQAPGQGLEWIGRIDPENGDAEYVPKFQGRVTMTRDTSTSTVYMELSSLRSEDTAVYYCTTGSYDLDVEYWGQGTLVTVSS
VL: DIQMTQSPSSLSASVGDRVTITCHASQNINVWLSWYQQKPGKAPKLLIYKASTLHTGVPSRFSGSGSGTDFTLTISSLQPEDFATYYCQQGQSYPLTFGQGTKLEIK
binds: all assays above
